Construct, isoform or probe ends are uncertain for at least one entry. A weaker result is weaker than the reference pair of the same experiment. At least one verdict rests on a figure or table, not on a statement of the authors. For part of these data: Protein sequences can lack the tags named with them.
Experiments:
[1] = biological target: T1, DdaA (A. baumannii), AbDdaA (Acinetobacter baumannii ATCC 17978) (UniProt V5VBS3); assay: EMSA; conditions: weakened or lost; protein in 150 mM NaCl, 20 mM Tris-HCl pH 7.5
T1 sequence (looked up, limits assumed): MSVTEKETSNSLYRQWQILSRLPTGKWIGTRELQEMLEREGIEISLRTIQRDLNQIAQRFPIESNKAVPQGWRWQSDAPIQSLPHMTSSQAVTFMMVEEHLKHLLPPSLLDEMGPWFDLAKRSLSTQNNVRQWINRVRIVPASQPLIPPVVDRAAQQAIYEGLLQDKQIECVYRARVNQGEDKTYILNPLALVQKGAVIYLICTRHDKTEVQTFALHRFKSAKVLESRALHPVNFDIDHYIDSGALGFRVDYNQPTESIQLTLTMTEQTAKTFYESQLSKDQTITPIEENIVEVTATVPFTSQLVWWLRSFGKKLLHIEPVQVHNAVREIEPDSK

[2] = test system: DdaA homolog Hi (Haemophilus influenzae 65290_NP_Hi3); assay: EMSA; conditions: protein in 150 mM NaCl, 20 mM Tris-HCl pH 7.5

TTTCCGGTCTGGGCGAGACAATATGACGTGTAATTTTAACC (double strand) [recA promoter M3]
binding result [1]: binds more weakly
binding result ([2]; weakened or lost): binds more weakly

TTTCCGGTCTGGGCGACACAATATGACGTGTAATTTTAACC (double strand) [recA promoter motif WT (AR-DDRM)]
binding result [2]: binds

From paper doi:10.1101/2024.11.11.622897
